Measured values from several laboratories, pooled; numbers as filed in NIAID ChemDB.

Shared fields: target-level tests; agent: HIV-1; protein: Reverse transcriptase; read-out: IC50

An empty or dashed field is not shown. Rows are shuffled and stem from different studies. ICn: concentration for n% inhibition. Two numbers with a dash give a range or band.

| smiles | mutations | strain or isolate | read by | result |
|---|---|---|---|---|
| CCc1ccc(-n2c(SCC(=O)Nc3ccc(C(=O)O)cc3Cl)nnc2C(F)(F)F)c2ccccc12 | - | - | nucleotide incorporation / radiometric | <0.05 µM |
| CC(C)(C#Cc1ccc(NC(=O)CSc2nnnn2-c2cc(Cl)c(C3CC3)cc2Cl)c(Cl)c1)C(=O)O | - | WT | PicoGreen / fluorescence | <1 µM |
| CCc1ccc(-n2c(SCC(=O)Nc3ccc(C(=O)O)cc3Cl)nnc2C(F)F)c2ccccc12 | RT-Y188L | - | nucleotide incorporation / radiometric | >0.1 µM |
| CN(CCc1cc[n+]([O-])cc1)C(=O)COc1ccc(NC(=O)CSc2nnnn2-c2ccc(C3CC3)cc2Cl)c(Cl)c1 | RT-K103 Y181C | - | PicoGreen / fluorescence | <1 µM |
| COc1cc(C#N)cc(C)c1Oc1nc(NC2CCN(c3cccc(C(N)=O)c3)CC2)ncc1Cl | K103N/Y181C | - | scintillation proximity | 0.05 µM |
| NC(=O)c1c(NC(=O)c2ccccc2O)sc2c1CCCCC2 | - | - | nucleotide incorporation / fluorescence | >100 µM |
| CC[C@H](C)[C@H](NC(=O)c1ccc(NC(=O)CSc2nnc(Br)n2-c2ccc(C3CC3)c3ccccc23)c(Cl)c1)C(=O)O | RT-Y188L | - | nucleotide incorporation / radiometric | 0.05–0.1 µM |
| O=c1oc(-c2ccc(O)cc2)nc2sc3c(c12)CCCCC3 | - | - | nucleotide incorporation / fluorescence | 21.1 µM |
| CN(CC(=O)O)C(=O)c1ccc(NC(=O)CSc2nnc(Br)n2-c2ccc(C3CC3)c3ccccc23)c(Cl)c1 | - | - | nucleotide incorporation / radiometric | <0.05 µM |
| COC(C(=O)Nc1ccc(NC(=O)CSc2nnnn2-c2ccc(C(C)(C)C)cc2Cl)c(Cl)c1)c1ccccc1 | - | WT | PicoGreen / fluorescence | <1 µM |
| CCCCCCCCCCCCNC(=O)Nc1c(O)c2ccc(O[C@@H]3OC(C)(C)[C@H](CO)[C@@H](OC(N)=O)[C@H]3O)c(C)c2oc1=O | - | - | radiometric | 60 µM |
| CC(C)(O/N=C(/C(=O)N[C@@H]1C(=O)N2C(C(=O)[O-])=C(C[n+]3ccccc3)CS[C@H]12)c1csc(N)n1)C(=O)O | - | - | radiometric | >100 µg/mL |
| O=C(CSc1nnnn1-c1ccc(C2CC2)cc1Cl)Nc1ccc(C#CC2(CNCCN3CCCC3)CC2)cc1Cl | RT-K103 Y181C | - | PicoGreen / fluorescence | <1 µM |
| Cc1cc(C#N)cc(F)c1Oc1nc(NC2CCN(c3cccc(C(N)=O)c3)CC2)ncc1Br | K103N/Y181C | - | scintillation proximity | 0.005 µM |
| NS(=O)(=O)c1ccc(NC(=O)CSc2nnc(Br)n2-c2ccc(C3CC3)c3ccccc23)c(Cl)c1 | - | - | nucleotide incorporation / radiometric | <0.05 µM |
| CC(C)(C#Cc1ccc(NC(=O)CSc2nnnn2-c2ccc(C3CC3)cc2Cl)c(Cl)c1)NC(=O)CCC(=O)O | RT-K103 Y181C | - | PicoGreen / fluorescence | <1 µM |
| COc1c(-c2cc(C)[nH]n2)c(O)c(S(=O)(=O)OC2CCCC2)c2occc12 | - | - | RT activity / radiometric | 0.000005 µM |
| Cc1cc(-c2ccccc2)nc(N2C(=O)CSC2c2c(Cl)cccc2Cl)n1 | - | - | absorbance | ~100 µg/mL |
| CCc1ccc(-n2c(Br)nnc2SCC(=O)Nc2ccc(C(=O)NCC(O)CO)cc2Cl)c2ccccc12 | RT-Y181C | - | nucleotide incorporation / radiometric | <0.05 µM |
| CCN(CC)c1ccc(-n2nnnc2SCC(=O)Nc2ccc(S(N)(=O)=O)cc2C)c(Cl)c1 | RT-K103N Y181C | - | fluorescence | ≥0.1 µM |
| CCc1ccc(-n2c(CF)nnc2SCC(=O)Nc2ccc(S(=O)(=O)NC)cc2Cl)c2ccccc12 | RT-Y188L | - | nucleotide incorporation / radiometric | >0.1 µM |
| O=C1CSC(c2c(F)cccc2F)N1c1nc(-c2ccccc2)cc(C(F)(F)F)n1 | - | - | absorbance | >100 µg/mL |
| CC(C)(C)c1ccc(-n2nnnc2SCC(=O)Nc2ccc(C(=O)NCc3ccco3)cc2Cl)c(Cl)c1 | RT-K103 Y181C | - | PicoGreen / fluorescence | <1 µM |
| CC(C)Nc1cccnc1N(C)CCOC(=O)c1cc2ccccc2[nH]1 | - | - | nucleotide incorporation | <100 µM |
| CC(C)(C)c1ccc(-n2nnnc2SCC(=O)Nc2ccc(OCC(=O)Nc3ccc(CC(=O)O)cc3)cc2Cl)c(Cl)c1 | RT-K103 Y181C | - | PicoGreen / fluorescence | <1 µM |
| O=C1CSC(c2c(Cl)cccc2Cl)N1c1nc(-c2ccccc2)cc(C(F)(F)F)n1 | - | - | absorbance | >100 µg/mL |
| COc1ccc(OS(=O)(=O)c2c3occc3c(OC)c3c(=O)cc(C)oc23)cc1 | - | - | RT activity / radiometric | 0.0000087 µM |
| CNc1ccc(-c2nc(=O)n(CC(=O)N3CCCC3)c3c2oc2ncc(-c4cnn(C)c4)cc23)cn1 | - | - | PicoGreen / fluorescence | 0.07 µM |
| CC(C)=CCCC(C)C1C(O)C/C(C)=C/C/C=C(/C=O)C1C=O | - | - | radiometric | 4.3 µg/mL |
| Cc1cc(C#N)cc(Cl)c1Nc1ccnc(NC2CCN(c3cccc(C(N)=O)c3)CC2)n1 | K103N/Y181C | - | scintillation proximity | 0.017 µM |
| COc1c(C(=O)/C=C(/C)Nc2ccccc2)c(O)c(S(=O)(=O)OC2CCCCC2)c2occc12 | - | - | RT activity / radiometric | 0.0000085 µM |
| Cc1nc2ccccc2c(=O)[nH]1 | - | - | nucleotide incorporation / fluorescence | >100 µM |
| O=C(CSc1nnnn1-c1ccc(C2CC2)cc1Cl)Nc1ccc(C(=O)NCc2cccc[n+]2[O-])cc1Cl | RT-K103 Y181C | - | PicoGreen / fluorescence | <1 µM |
| CCc1ccc(-n2c(Br)nnc2SCC(=O)Nc2ccc(C(=O)NCC(=O)O)cc2Cl)c2ccccc12 | - | - | nucleotide incorporation / radiometric | <0.05 µM |
| CC(C)(C)c1ccc(-n2nnnc2SCC(=O)Nc2ccc(NC(=O)NCc3ccccc3)cc2Cl)c(Cl)c1 | RT-K103 Y181C | - | PicoGreen / fluorescence | <1 µM |
| Cc1cc(C#N)cc(Cl)c1Oc1nc(NC2CCN(c3cccc(C(N)=O)c3)CC2)ncc1Cl | K103N/Y181C | - | scintillation proximity | 0.013 µM |
| CCc1cc(NCc2nc3c(C)ccc(C)c3o2)c(=O)[nH]c1C | RT-K103N Y181C | - | nucleotide incorporation | >282 µM |
| Cc1cc(S(N)(=O)=O)ccc1NC(=O)CSc1nnc(C(F)F)n1-c1cccc2c(C#N)cccc12 | RT-Y181C | - | nucleotide incorporation / radiometric | >0.1 µM |
| S=C(NCCc1ccccc1Cl)Nc1ccc(Br)cn1 | - | - | radiometric | 0.7 µM |
| O=C(CSc1nnnn1-c1ccc(C2CC2)cc1Cl)Nc1ccc(-c2ccc(OCCN3CCCCC3)c(Cl)c2)cc1Cl | RT-K103 Y181C | - | PicoGreen / fluorescence | <1 µM |
| COc1ccc2[nH]c(C(=O)N(C)CCN(C)c3ncccc3NC(C)C)cc2c1 | - | - | nucleotide incorporation | <100 µM |
| CCOC(=O)CNC(=O)c1ccc(NC(=O)CSc2nnc(Br)n2-c2ccc(C3CC3)c3ccccc23)c(Cl)c1 | - | - | nucleotide incorporation / radiometric | <0.05 µM |
| CN(C)CC(=O)NC(C)(C)C#Cc1ccc(NC(=O)CSc2nnnn2-c2cc(C(F)(F)F)ccc2Cl)c(Cl)c1F | - | WT | PicoGreen / fluorescence | <1 µM |
| COc1ccc(N/C(C)=C\C(=O)c2c(O)c(S(=O)(=O)Oc3ccc([N+](=O)[O-])cc3)c3occc3c2OC)cc1 | - | - | RT activity / radiometric | 0.0000071 µM |
| CC(C)Nc1cccnc1N1CCN(C(=O)c2cc3ccccc3[nH]2)CC1 | - | - | nucleotide incorporation | <100 µM |
| CCc1ccc(-n2c(Br)nnc2SCC(=O)Nc2ccc(C(=O)NCC(=O)OC)cc2Cl)c2ccccc12 | RT-Y188L | - | nucleotide incorporation / radiometric | 0.05–0.1 µM |
| CC(C)(C#Cc1ccc(NC(=O)CSc2nnnn2-c2ccc3ncccc3c2Cl)c(Cl)c1)C(=O)O | RT-K103 Y181C | - | PicoGreen / fluorescence | <1 µM |
| CC(C)Nc1cccnc1N1CCN(C(=O)c2cc3ccc(O)cc3[nH]2)CC1 | RT-Y188L | - | scintillation proximity | 2.86 µM |
| Cc1cc(C2CC2)cc(C)c1-n1c(Br)nnc1SCC(=O)Nc1ccc(C(=O)O)cc1Cl | RT-Y188L | - | nucleotide incorporation / radiometric | >0.1 µM |
| CC(C)(O)C#Cc1ccc(NC(=O)CSc2nnnn2-c2ccc(C(C)(C)C)cc2Cl)c(Cl)c1 | RT-K103 Y181C | - | PicoGreen / fluorescence | <1 µM |
| Cc1ccc2c(C)ccc(-n3c(Br)nnc3SCC(=O)Nc3ccc(S(N)(=O)=O)cc3Br)c2c1 | RT-Y188L | - | nucleotide incorporation / radiometric | 0.05–0.1 µM |
| COc1ccccc1NC(=O)c1c(N)sc2c1CCCCC2 | - | - | nucleotide incorporation / fluorescence | 51 µM |
| COc1cccc2[nH]c(C(=O)N3CCN(c4ncccc4NC(C)C)CC3)cc12 | - | - | nucleotide incorporation | <100 µM |
| CC(C)(C#Cc1ccc(NC(=O)CSc2nnnn2-c2ccc(C(C)(C)C)cc2Cl)c(Cl)c1)OCC(=O)NCC(=O)O | - | WT | PicoGreen / fluorescence | <1 µM |
| O=C(O)CNC(=O)c1ccc(NC(=O)CSc2nnc(Br)n2-c2ccc(C3CC3)c3ccccc23)c(Cl)c1 | RT-Y188L | - | nucleotide incorporation / radiometric | 0.05–0.1 µM |
| CC(C)Oc1ccc(Cl)c(-n2nnnc2SCC(=O)Nc2ccc(C#CC(C)(C)C(=O)O)cc2Cl)c1 | RT-K103 Y181C | - | PicoGreen / fluorescence | <1 µM |
| COc1c(-c2cc(C)[nH]n2)c(O)c(S(=O)(=O)Oc2ccc([N+](=O)[O-])cc2)c2occc12 | - | - | RT activity / radiometric | 0.0000043 µM |
| O=c1oc(-c2ccc(O)c(O)c2)nc2sc3c(c12)CCCCC3 | - | - | nucleotide incorporation / fluorescence | 9.1 µM |
| CC(C)(C)c1ccc(-n2nnnc2SCC(=O)Nc2ccc(C(=O)NC3CC3)cc2Cl)c(Cl)c1 | RT-K103 Y181C | - | PicoGreen / fluorescence | <1 µM |
| COc1c(C(=O)/C=C(/C)Nc2ccccc2)c(O)c(S(=O)(=O)Oc2ccc([N+](=O)[O-])cc2)c2occc12 | - | - | RT activity / radiometric | 0.0000074 µM |
| CC(C)(C)c1ccc(-n2nnnc2SCC(=O)Nc2ccc(OCC(=O)Nc3ccccc3O)cc2Cl)c(Cl)c1 | - | WT | PicoGreen / fluorescence | <1 µM |
| N#Cc1cccc2c(-n3c(SCC(=O)Nc4ccc(S(N)(=O)=O)cc4Cl)nnc3C(F)F)cccc12 | RT-Y188L | - | nucleotide incorporation / radiometric | >0.1 µM |
| CC(C)(C)c1ccc(-n2nnnc2SCC(=O)Nc2ccc(C(=O)NCCC(=O)O)cc2Cl)c(Cl)c1 | RT-K103 Y181C | - | PicoGreen / fluorescence | <1 µM |
| O=C(CSc1nnc(Br)n1-c1ccc(C2CC2)cc1C(F)(F)F)Nc1ccc(C(=O)O)cc1Cl | - | - | nucleotide incorporation / radiometric | <0.05 µM |
| COc1ccccc1CCNC(=S)Nc1ccccn1 | - | - | radiometric | 1 µM |
| Nc1sc2c(c1C(=O)Nc1ccccc1O)CCCCC2 | - | - | nucleotide incorporation / fluorescence | 78 µM |
| O=C1CSC(c2c(F)cccc2Cl)N1c1nc(-c2ccccc2)cc(-c2ccccc2)n1 | - | - | absorbance | <10 µg/mL |
| CC(C)(C#Cc1ccc(NC(=O)CSc2nnnn2-c2ccc(C(C)(C)C)cc2Cl)c(Cl)c1)OCC(=O)Nc1ccc(/C=C/C(=O)O)cc1 | RT-K103 Y181C | - | PicoGreen / fluorescence | <1 µM |
| CC(C)=CCN1Cc2cccc3[nH]c(=S)n(c23)C[C@@H]1C | - | - | nucleotide incorporation | 0.23 µM |
| CC(C)(C)c1ccc(-n2nnnc2SCC(=O)Nc2ccc(C#CCCC(=O)O)cc2Cl)c(Cl)c1 | RT-K103 Y181C | - | PicoGreen / fluorescence | <1 µM |
| CCc1ccc(-n2c(CF)nnc2SCC(=O)Nc2ccc(S(N)(=O)=O)cc2Cl)c2c1CCCC2 | RT-Y188L | - | nucleotide incorporation / radiometric | >0.1 µM |

For reference, 7 entries again:

smiles	mutations	strain or isolate	read by	result
CC(C)(C)c1ccc(-n2nnnc2SCC(=O)Nc2ccc(C#CCCC(=O)O)cc2Cl)c(Cl)c1	RT-K103 Y181C	-	PicoGreen / fluorescence	<1 µM
CCc1ccc(-n2c(Br)nnc2SCC(=O)Nc2ccc(C(=O)NCC(=O)O)cc2Cl)c2ccccc12	-	-	nucleotide incorporation / radiometric	<0.05 µM
CCc1ccc(-n2c(Br)nnc2SCC(=O)Nc2ccc(C(=O)NCC(=O)OC)cc2Cl)c2ccccc12	RT-Y188L	-	nucleotide incorporation / radiometric	0.05–0.1 µM
CN(CC(=O)O)C(=O)c1ccc(NC(=O)CSc2nnc(Br)n2-c2ccc(C3CC3)c3ccccc23)c(Cl)c1	-	-	nucleotide incorporation / radiometric	<0.05 µM
O=C1CSC(c2c(F)cccc2F)N1c1nc(-c2ccccc2)cc(C(F)(F)F)n1	-	-	absorbance	>100 µg/mL
CC(C)(O)C#Cc1ccc(NC(=O)CSc2nnnn2-c2ccc(C(C)(C)C)cc2Cl)c(Cl)c1	RT-K103 Y181C	-	PicoGreen / fluorescence	<1 µM
CN(CCc1cc[n+]([O-])cc1)C(=O)COc1ccc(NC(=O)CSc2nnnn2-c2ccc(C3CC3)cc2Cl)c(Cl)c1	RT-K103 Y181C	-	PicoGreen / fluorescence	<1 µM